A mixed list of measured activities; the numbers were collected in NIAID ChemDB.

Common to all: whole-cell or culture tests; agent: Mycobacterium avium complex; read-out: MIC

Two numbers with a dash give a range or band.

COc1ccc(C)c(NCc2cnc3nc(N)nc(N)c3c2C)c1 ; strain: NJ168 ; result: ≤0.13 µg/mL
CC(C)NC(=O)OCCN=c1ssc2ccccc12 ; strain: ATCC 15769 ; result: 8 µg/mL
COc1ccccc1Sc1nc(Cl)nc2nc[nH]c12 ; strain: NJ211 ; result: >12.8 µg/mL
Nc1ccc(S(=O)(=O)c2ccc(N)cc2)cc1 ; strain: DW26 ; result: 32 µg/mL
Cc1ccccc1Sc1ncccn1 ; strain: NJ211 ; result: >12.8 µg/mL
CC[C@H]1OC(=O)[C@H](C)[C@@H](OC2C[C@@](C)(OC)[C@@H](OC(=O)c3ccccc3)[C@H](C)O2)[C@H](C)[C@@H](O[C@@H]2O[C@H](C)C[C@H](N(C)C)[C@H]2O)C(C)(O)C[C@@H](C)/C(=N\OCCCOc2ccccc2)[C@H](C)[C@@H](O)[C@]1(C)O ; strain: 20039 (clarithromycin-susceptible) ; result: 1.56 µg/mL
CO[C@H]1/C=C/O[C@@]2(C)Oc3c(C)c(O)c4c(O)c(c5c(c4c3C2=O)NC2(CCN(CC(C)C)CC2)N=5)=NC(=O)/C(C)=C\C=C\[C@H](C)[C@H](O)[C@@H](C)[C@@H](O)[C@@H](C)[C@H](OC(C)=O)[C@@H]1C ; strain: CIPT 140310005 ; result: 0.1 µg/mL
CCCCCCCCO/N=C1\[C@H](C)CC(C)(O)[C@H](O[C@@H]2O[C@H](C)C[C@H](N(C)C)[C@H]2O)[C@@H](C)[C@H](OC2C[C@@](C)(OC)[C@@H](O)[C@H](C)O2)[C@@H](C)C(=O)O[C@H](CC)[C@@](C)(O)[C@H](O)[C@H]1C ; strain: 20039 ; result: 3.13 µg/mL
CS(=O)(=O)c1ccc2c(c1)C(=O)c1nc3ccncc3c(=O)n1-2 ; strain: 19075 ; result: >25 µg/mL
C[C@@H]1CN(c2c(F)c(N)c3c(=O)c(C(=O)O)cn(C4CC4)c3c2F)C[C@H](C)N1 ; strain: N-978 (HIV+) ; result: 0.5 µg/mL
Cc1c(CNc2cc(F)ccc2F)cnc2nc(N)nc(N)c12 ; strain: NJ3404 ; result: ≤0.13 µg/mL
Cc1ccc(CSc2ncccn2)cc1 ; strain: NJ211 ; result: >12.8 µg/mL
COc1ccc(C)cc1NCc1cnc2nc(N)nc(N)c2c1C ; strain: NJ3404 ; result: ≤0.13 µg/mL
CCCCCCNNC(=O)O[C@H]1[C@H](O[C@@H]2[C@@H](C)[C@H](O[C@H]3C[C@@](C)(OC)[C@@H](OC(C)=O)[C@H](C)O3)[C@@H](C)C(=O)O[C@H](CC)[C@@](C)(O)[C@H](O)[C@@H](C)/C(=N/OCCCC3CCCCC3)[C@H](C)CC2(C)O)O[C@H](C)C[C@@H]1N(C)C ; strain: 20096 (clarithromycin-resistant) ; result: 1.56 µg/mL
CC[C@H]1OC(=O)[C@H](C)[C@@H](OC2C[C@@](C)(OC)[C@@H](O)[C@H](C)O2)[C@H](C)[C@@H](O[C@@H]2O[C@H](C)C[C@H](N(C)C)[C@H]2O)C(C)(O)C[C@@H](C)/C(=N\OCCCC2CCCCC2)[C@H](C)[C@@H](O)[C@]1(C)O ; strain: 20039 ; result: 3.13 µg/mL
O=C1c2ccccc2-n2c1nc1ccncc1c2=O ; strain: 19075 ; result: 5 µg/mL
CCCCNC(=O)OCCn1sc2ccccc2c1=O ; strain: AN1 ; result: 16 µg/mL
O=C1c2cc(Cl)ccc2-n2c1nc1cc(F)ccc1c2=O ; strain: 19075 ; result: 0.06 µg/mL
CCCCCCCCCCC(=O)O[C@H]1[C@H](C)OC(O[C@H]2[C@H](C)[C@@H](O[C@@H]3O[C@H](C)C[C@H](N(C)C)[C@H]3O)C(C)(O)C[C@@H](C)/C(=N\OCCCOc3ccccc3)[C@H](C)[C@@H](O)[C@](C)(O)[C@@H](CC)OC(=O)[C@@H]2C)C[C@@]1(C)OC ; strain: 20039 (clarithromycin-susceptible) ; result: 3.13 µg/mL
CC1(C)S[C@@H]2[C@H](NC(=O)[C@H](C(=O)[O-])c3ccsc3)C(=O)N2[C@H]1C(=O)[O-].[Na+].[Na+] ; strain: CIPT 140310003 (smooth) ; result: 50 µg/mL
Cc1ccc(NCc2cnc3nc(N)nc(N)c3c2C)cc1Cl.O ; strain: NJ168 ; result: ≤0.13 µg/mL
CC(C)(C)NC(=O)OCCn1sc2ccccc2c1=S ; strain: AN2 ; result: 4 µg/mL
Cc1onc(-c2ccccc2Cl)c1C(=O)N[C@@H]1C(=O)N2[C@@H]1SC(C)(C)[C@@H]2C(=O)O ; strain: CIPT 140310003 (smooth) ; result: 100 µg/mL
CC1(C)N=C(N)N=C(N)N1OCCCOc1cc(Cl)c(Cl)cc1Cl ; strain: 1439 ; result: 4 µg/mL
CO[C@H]1/C=C/O[C@@]2(C)Oc3c(C)c(O)c4c(=O)c(c5oc6cc(N7CCN(CC(C)C)CC7)cc(=O)c6nc5c4c3=C2O)NC(=O)/C(C)=C\C=C\[C@H](C)[C@H](O)[C@@H](C)[C@@H](O)[C@@H](C)[C@H](OC(C)=O)[C@@H]1C ; strain: N-316 (HIV-) ; result: 0.0313 µg/mL
O=C1c2cc(Cl)ccc2-n2c1nc1ncccc1c2=O ; strain: 19075 ; result: 5 µg/mL
CC[C@H]1OC(=O)[C@H](C)[C@@H](O[C@H]2C[C@@](C)(OC)[C@@H](O)[C@H](C)O2)[C@H](C)[C@@H](O[C@@H]2O[C@H](C)C[C@H](N(C)C)[C@H]2O)[C@](C)(OC)C[C@@H](C)C(=O)[C@H](C)[C@@H](O)[C@]1(C)O ; strain: 20092 ; result: >50 µg/mL
Cc1c(CNc2cnc3ccccc3c2)cnc2nc(N)nc(N)c12 ; strain: NJ168 ; result: ≤0.13 µg/mL
CC(=O)Nc1ccc(/C(C)=N\NC(N)=S)cc1 ; strain: 101 ; result: 0.25 µg/mL
CCN(CCN(C)C)c1ccc2nc3n(c(=O)c2c1)-c1ccc(Cl)cc1C3=O ; strain: 19075 ; result: 5 µg/mL
CC(C)NC(=O)OCCn1sc2ccccc2c1=O ; strain: AN3 ; result: 16 µg/mL
CC[C@H]1OC(=O)[C@H](C)[C@@H](O[C@H]2C[C@@](C)(OC)[C@@H](O)[C@H](C)O2)[C@H](C)[C@@H](O[C@@H]2O[C@H](C)C[C@H](N(C)C)[C@H]2O)[C@](C)(OC)C[C@@H](C)C(=O)[C@H](C)[C@@H](O)[C@]1(C)O ; strain: N-976 (HIV+) ; result: 2 µg/mL
NNC(=O)c1ccncc1 ; strain: E12460 ; result: 1.25–1.6 µg/mL
CC[C@H]1OC(=O)[C@H](C)[C@@H](OC2C[C@@](C)(OC)[C@@H](O)[C@H](C)O2)[C@H](C)[C@@H](O[C@@H]2O[C@H](C)C[C@H](N(C)C)[C@H]2O)C(C)(O)C[C@@H](C)/C(=N\OCC2CCCCC2)[C@H](C)[C@@H](O)[C@]1(C)O ; strain: 20092 ; result: >50 µg/mL
CC[C@H]1OC(=O)[C@H](C)[C@@H](O[C@H]2C[C@@](C)(OC)[C@@H](O)[C@H](C)O2)[C@H](C)[C@@H](O[C@@H]2O[C@H](C)C[C@H](N(C)C)[C@H]2O)[C@](C)(OC)C[C@@H](C)C(=O)[C@H](C)[C@@H](O)[C@]1(C)O ; strain: Isolate 90-0804 ; result: 3 µg/mL
C[C@@H](O)[C@H]1C(=O)N2C(C(=O)O)=C(SCCN=CN)C[C@H]12 ; strain: CIPT 140310002 ; result: 10 µg/mL
CCCC(=O)O[C@H]1[C@H](C)[C@@H](O[C@@H]2O[C@H](C)C[C@H](N(C)C)[C@H]2O)C(C)(O)C[C@@H](C)/C(=N\OCCCOc2ccccc2)[C@H](C)[C@@H](O)[C@](C)(O)[C@@H](CC)OC(=O)[C@@H]1C ; strain: 20092 (clarithromycin-resistant) ; result: 12.5 µg/mL
CO[C@H]1/C=C/O[C@@]2(C)Oc3c(C)c(O)c4c(O)c(c(/C=N/N5CCN(C6CCCC6)CC5)c(O)c4c3C2=O)NC(=O)/C(C)=C\C=C\[C@H](C)[C@H](O)[C@@H](C)[C@@H](O)[C@@H](C)[C@H](OC(C)=O)[C@@H]1C ; strain: T ; result: 0.25 µg/mL
CN[C@@H]1[C@H](O[C@H]2[C@H](O[C@H]3[C@H](O)[C@@H](O)[C@H](N=C(N)N)[C@@H](O)[C@@H]3N=C(N)N)O[C@@H](C)[C@]2(O)C=O)O[C@@H](CO)[C@H](O)[C@H]1O ; strain: N-289 (HIV-) ; result: 16 µg/mL
COc1ccc(CSc2ccccn2)cc1 ; strain: NJ211 ; result: >12.8 µg/mL
O=C1c2cc(F)ccc2-n2c1nc1c(OCc3ccccc3)cccc1c2=O ; strain: 19075 ; result: >25 µg/mL
CC[C@H]1OC(=O)[C@H](C)[C@@H](OC2C[C@@](C)(OC)[C@@H](O)[C@H](C)O2)[C@H](C)[C@@H](O[C@@H]2O[C@H](C)C[C@H](N(C)C)[C@H]2O)C(C)(O)C[C@@H](C)/C(=N\OCCCCc2ccccc2)[C@H](C)[C@@H](O)[C@]1(C)O ; strain: 20092 ; result: 6.25 µg/mL
COc1ccccc1Sc1ncccn1 ; strain: NJ211 ; result: >12.8 µg/mL
CC[C@H]1OC(=O)[C@H](C)[C@@H](OC2C[C@@](C)(OC)[C@@H](O)[C@H](C)O2)[C@H](C)[C@@H](O[C@@H]2O[C@H](C)C[C@H](N(C)C)[C@H]2O)C(C)(O)C[C@@H](C)/C(=N\OCCCCCc2ccccc2)[C@H](C)[C@@H](O)[C@]1(C)O ; strain: 20092 ; result: 6.25 µg/mL
CC(C)(C)NC(=O)OCCn1sc2ccccc2c1=O ; strain: AN3 ; result: >32 µg/mL

Conditions beyond the fields shown may differ between rows.